{"source": "ChEMBL document CHEMBL3988442", "about": "“University of Dundee, Small-Polar-MMV Screening Library” (2021)", "key": {"[1]": {"tested_on": "Mycobacterium tuberculosis", "set-up": "scale not given: direction of the effect not stated beside the values", "conditions": "500 µM"}, "[2]": {"tested_on": "Mycobacterium tuberculosis", "set-up": "scale not given: direction of the effect not stated beside the values", "conditions": "500 µM", "remark": "listed apart in the source"}}, "note": "Only a part is listed here, and it is no random draw.", "data": [{"smiles": "NC(CF)c1ccc(F)cc1", "note": "(configuration not stated)", "values": [{"measurement": "Percent Effect", "setting": "[1]", "result": 4.65, "unit": "%"}, {"measurement": "Percent Effect", "setting": "[2]", "result": 12.2, "unit": "%"}]}]}
